Compound potency records, mixed from different reports. Data source: NIAID ChemDB in PubChem.

Shared fields: tests in culture; agent: Aspergillus flavus

MIC50, MIC90 and the like: level of inhibition, or share of isolates inhibited. An empty or dashed field is not shown. Lines come from different laboratories, so protocols vary.

SMILES,read by,strain or isolate,read-out,result
CC(C)S(=O)(=O)N1CCN(c2cnn(-c3cc(F)cc(F)c3)c(=O)c2OC2CCC(F)C2)CC1,broth dilution,ND83,MIC,0.125 µg/mL
Cn1c(=O)c(-c2[nH][nH]c(=O)c2N=Nc2ccccc2)c(O)c2ccccc21,,ATCC 28542,MIC,>100 µg/mL
COc1cc(-c2n[nH]c(COc3ncnc4ccccc34)n2)cc(OC)c1OC,,MTCC 277,MIC100,6.25 µg/mL
CCCCCCCCCCCCOC(=O)[C@]1(O)C[C@@H](O)[C@@H](O)[C@H](OC(=O)/C=C/c2ccc(O)c(O)c2)C1,absorbance,AMP 9,MIC50,1400 µM
CCC(C)CC(C)CCCCCCCCC(=O)N[C@H]1C[C@@H](O)[C@H](NCCN)NC(=O)[C@@H]2[C@@H](O)CCN2C(=O)[C@H]([C@H](O)CCN)NC(=O)[C@H]([C@H](O)[C@@H](O)c2ccc(O)cc2)NC(=O)[C@@H]2C[C@@H](O)CN2C(=O)[C@H]([C@@H](C)O)NC1=O,broth dilution,ND83,MIC,0.06 µg/mL
Cc1ccc(-c2n[nH]c(COc3nc(C)nc4ccccc34)n2)cc1,,MTCC 277,MIC100,50 µg/mL
CCC(C)n1ncn(-c2ccc(N3CCN(c4ccc(OC[C@H]5CO[C@](Cn6cncn6)(c6ccc(Cl)cc6Cl)O5)cc4)CC3)cc2)c1=O,,IAM 13835,MIC,0.1 µg/mL
CN1C(=O)/C(=c2/[nH][nH]c(=O)/c2=C\c2ccc(N)cc2)C(=O)c2ccccc21,,ATCC 28542,MIC,>100 µg/mL
Clc1ccc(-c2n[nH]c(COc3ncnc4ccccc34)n2)cc1,,MTCC 277,MIC100,25 µg/mL
CN1C(=O)/C(=c2/[nH][nH]c(=O)/c2=C\c2ccc3c(c2)OCO3)C(=O)c2ccccc21,,ATCC 28542,MIC,50 µg/mL
COc1ccc(-c2n[nH]c(COc3nc(C(F)(F)F)nc4ccccc34)n2)cc1OC,,MTCC 277,MIC100,25 µg/mL
Cn1c(=O)c(-c2[nH][nH]c(=O)c2C=Nc2ccncc2)c(O)c2ccccc21,,ATCC 28542,MIC,25 µg/mL
COc1ccc(-c2n[nH]c(COc3nc(C)nc4ccccc34)n2)cc1,,MTCC 277,MIC100,50 µg/mL
Cc1ccc(/C=c2\c(=O)[nH][nH]\c2=C2/C(=O)c3ccccc3N(C)C2=O)cc1,,ATCC 28542,MIC,>100 µg/mL
COC(=O)/C=C/c1ccc(OC)cc1,broth dilution / resazurin,,MIC,62.5 µg/mL

Repeating the final 2 entries:

{"SMILES": "Cc1ccc(/C=c2\\c(=O)[nH][nH]\\c2=C2/C(=O)c3ccccc3N(C)C2=O)cc1", "strain or isolate": "ATCC 28542", "read-out": "MIC", "result": ">100 µg/mL"}
{"SMILES": "COC(=O)/C=C/c1ccc(OC)cc1", "read by": "broth dilution / resazurin", "read-out": "MIC", "result": "62.5 µg/mL"}